Results of unrelated studies side by side (data: NIAID ChemDB).

Common to all: growth or infection tests; species: Influenza A virus; cell line: MDCK; measure: EC50

ECn is the concentration giving n% inhibition of infection, replication or growth. An empty or dashed field is not shown. Neighbouring rows are from separate reports.

smiles	strain	read by	result
Cc1nc(N2CC[N+]3(CC2)CC[N+]2(CCN(c4nc(C)nc5c4no[n+]5[O-])CC2)CC3)c2c(no[n+]2[O-])n1	-	cytopathic effect	>70 µg/mL
CC#Cc1cn([C@@H]2O[C@H](COP(=O)(O)Oc3ccccc3)[C@@H](O)[C@@H]2O)c(=O)[nH]c1=O	H1N1 A/Sweden/3/50	plaque count	>100 µM
C[N+]1(C)CCN(c2cccc(N3CC[N+](C)(C)CC3)c2[N+](=O)[O-])CC1	-	cytopathic effect	>70 µg/mL
NC(=O)c1ncn([C@@H]2O[C@H](CO)[C@@H](O)[C@H]2O)n1	Influenza A/Ishikawa/7/82 (H3N2)	plaque count	8.4 µg/mL
Cc1cc(N2CC[N+](C)(C)CC2)c([N+](=O)[O-])c(N2CC[N+](C)(C)CC2)c1	-	cytopathic effect	>70 µg/mL
CC#Cc1cn([C@@H]2O[C@H](CO)[C@@H](O)[C@@H]2O)c(=O)[nH]c1=O	H1N1 A/Sweden/3/50	plaque count	>100 µM
NC12CC3CC(CC(C3)C1)C2	A/NWS/33	cytopathic effect	9 µg/mL
CC(C)(C)C1CC(CNC(=O)/C(C#N)=N/OCc2cccnc2)=NO1	A/WSN/33	cytopathic effect	>100 µg/mL
O=C(NCCc1c[nH]c2ccccc12)C1=Cc2ccncc2CC1	-	cytopathic effect	>32 µM
C[C@@H](O)C1=C[C@@H](n2cnc3c(N)ncnc32)[C@H](O)[C@@H]1O	A/Bangkok/10/83 (H1N1)	plaque count	>100 µg/mL
CC(C)CCCC(C)C1CCC2C3CC=C4CC(OC(=O)Nc5ccc(S(=O)(=O)O)c6ccccc56)CCC4(C)C3CCC12C	Influenza A/Ishikawa/7/82 (H3N2)	cytopathic effect	20 µM
NC(=O)c1ncn([C@@H]2O[C@H](CO)[C@@H](O)[C@H]2O)n1	H3N2 HONG KONG/1/68	plaque count	2.9 µg/mL
C[C@H]1C[C@@H](n2cnc3c(N)ncnc32)[C@H](O)[C@@H]1O	Ishikawa	cytopathic effect	>100 µg/mL
CC#Cc1cn([C@@H]2O[C@H](COP(=O)(O)Oc3ccc(Cl)cc3)[C@@H](O)[C@@H]2O)c(=O)[nH]c1=O	H1N1 A/Sweden/3/50	plaque count	100 µM
NC(=O)c1nc(F)c[nH]c1=O	H1N1 PR/8/34	plaque count	0.16 µg/mL
Cc1cc(=O)c2c(O)c3c(O)cc(O)c4c5c(O)cc(O)c6c(O)c7c(=O)cc(C)c8c1c2c(c34)c(c65)c78	A/Brazil	cytopathic effect	>100 µg/mL
CC(=O)Nc1c(N=C(N)N)cc(C(=O)O)cc1[C@H](O)[C@H](O)CO	Influenza A/Shandong/09/93 (H3N2)	cytopathic effect	65 µM
COc1ncnc(N2CC[N+]3(CC2)CC[N+]2(CCN(c4ncnc(OC)c4[N+](=O)[O-])CC2)CC3)c1[N+](=O)[O-]	-	cytopathic effect	>70 µg/mL
COc1cc(NC(=O)Nc2cccc(CNC(=O)O[C@H]3CCOC3)c2)ccc1-c1cnco1	-	MTT	>31 µM
CC#Cc1cn([C@@H]2O[C@H](COP(=O)(O)OCC(F)(F)F)[C@@H](O)[C@@H]2O)c(=O)[nH]c1=O	H1N1 A/Sweden/3/50	plaque count	>100 µM
NC12CC3CC(CC(C3)C1)C2	H1N1 A/TEXAS/36/91	neutral red / visual reading	3 µM
CC#Cc1cn([C@@H]2O[C@H](COP(=O)(O)OCC)[C@@H](O)[C@@H]2O)c(=O)[nH]c1=O	H1N1 A/Sweden/3/50	plaque count	>100 µM
O=c1[nH]cnc(N2CC[N+]3(CC2)CC[N+]2(CCN(c4nc[nH]c(=O)c4[N+](=O)[O-])CC2)CC3)c1[N+](=O)[O-]	-	cytopathic effect	>70 µg/mL
CO/N=C(\C#N)C(=O)NCc1cccs1	A/WSN/33	cytopathic effect	>100 µg/mL
Nc1ccc(S(=O)(=O)O)c2cccc(S(=O)(=O)O)c12	Influenza A/Ishikawa/7/82 (H3N2)	cytopathic effect	>200 µM
CCCC(=O)O[C@H]1CN2CC[C@H](O)[C@@H]2[C@@H](O)[C@@H]1O	A/HONG KONG/11/88	plaque count	<6 µM
CO/N=C(\C#N)C(=O)NC(=O)OC(C)(C)C	A/WSN/33	cytopathic effect	>100 µg/mL
CC(C)CCCC(C)C1CCC2C3CC=C4CC(OC(=O)Nc5ccc(S(=O)(=O)O)c6cccc(S(=O)(=O)O)c56)CCC4(C)C3CCC12C	Influenza A/Ishikawa/7/82 (H3N2)	cytopathic effect	7 µM
CC#Cc1cn([C@@H]2O[C@H](COP(=O)(O)Oc3cccc(Cl)c3)[C@@H](O)[C@@H]2O)c(=O)[nH]c1=O	H1N1 A/Sweden/3/50	plaque count	10 µM
CO/N=C(\C#N)C(=O)NCc1cccnc1	A/WSN/33	cytopathic effect	>100 µg/mL
CC#Cc1cn([C@@H]2O[C@H](COP(=O)(O)Oc3c(C)cccc3C)[C@@H](O)[C@@H]2O)c(=O)[nH]c1=O	H1N1 A/Sweden/3/50	plaque count	>10 µM
O=[N+]([O-])c1cc(C(F)(F)F)ccc1N1CC[N+]2(CC1)CC[N+]1(CCN(c3ccc(C(F)(F)F)cc3[N+](=O)[O-])CC1)CC2	-	cytopathic effect	>70 µg/mL

Repeating the final 5 entries:

| smiles | strain | read by | result |
|---|---|---|---|
| CC(C)CCCC(C)C1CCC2C3CC=C4CC(OC(=O)Nc5ccc(S(=O)(=O)O)c6cccc(S(=O)(=O)O)c56)CCC4(C)C3CCC12C | Influenza A/Ishikawa/7/82 (H3N2) | cytopathic effect | 7 µM |
| CC#Cc1cn([C@@H]2O[C@H](COP(=O)(O)Oc3cccc(Cl)c3)[C@@H](O)[C@@H]2O)c(=O)[nH]c1=O | H1N1 A/Sweden/3/50 | plaque count | 10 µM |
| CO/N=C(\C#N)C(=O)NCc1cccnc1 | A/WSN/33 | cytopathic effect | >100 µg/mL |
| CC#Cc1cn([C@@H]2O[C@H](COP(=O)(O)Oc3c(C)cccc3C)[C@@H](O)[C@@H]2O)c(=O)[nH]c1=O | H1N1 A/Sweden/3/50 | plaque count | >10 µM |
| O=[N+]([O-])c1cc(C(F)(F)F)ccc1N1CC[N+]2(CC1)CC[N+]1(CCN(c3ccc(C(F)(F)F)cc3[N+](=O)[O-])CC1)CC2 | - | cytopathic effect | >70 µg/mL |